# Paper PMC9550806, “Structural insights into PA3488-mediated inactivation of Pseudomonas aeruginosa PldA” (2022)
# Biological target: Pseudomonas aeruginosa PldA, full length (PldA^FL) (P. aeruginosa) (UniProt Q9HYC2)
# Assay: SPR
Substance,Kd,koff,kon
PA3488^D273A (natural protein),17.3 nM,0.00012 s⁻¹,6920 M⁻¹ s⁻¹
PA3488^D118A (natural protein),0.019 nM,6.25e-06 s⁻¹,330000 M⁻¹ s⁻¹
PA3488^R50A (natural protein),1.03 nM,0.000214 s⁻¹,208000 M⁻¹ s⁻¹
PA3488^R50A-D118A-D273A (natural protein),14.1 nM,0.00382 s⁻¹,271000 M⁻¹ s⁻¹

# Biological target: Pseudomonas aeruginosa PA3488 (20-376, without the N-terminal 19 signal peptide) (P. aeruginosa)
# Assay: SPR
Substance,Kd,koff,kon
PldA^D643A-R820A-R969A (from UniProt Q9HYC2 1-1099) (enzyme),0.741 nM,1.78e-06 s⁻¹,2400 M⁻¹ s⁻¹
PldA^D643A (from UniProt Q9HYC2 1-1099) (enzyme),0.846 nM,1.83e-05 s⁻¹,21700 M⁻¹ s⁻¹
PldA^R969A (from UniProt Q9HYC2 1-1099) (enzyme),6.42 nM,7.57e-05 s⁻¹,11800 M⁻¹ s⁻¹
PldA^R820A (from UniProt Q9HYC2 1-1099) (enzyme),0.0244 nM,5.19e-08 s⁻¹,2130 M⁻¹ s⁻¹
"Pseudomonas aeruginosa PldA, full length (PldA^FL) (from UniProt Q9HYC2 1-1099) (enzyme)",0.0307 nM,1.83e-05 s⁻¹,596000 M⁻¹ s⁻¹
